The test system of test [1] is Helicobacter pylori. Kind of test: Ratio of kcat to Km of Helicobacter pylori beta CA.
For test [2], the system named is Helicobacter pylori. Kind of test: Ratio of kcat to Km of Helicobacter pylori alpha CA.
The test system of test [3] is Helicobacter pylori. Kind of test: Activity of Helicobacter pylori beta CA at pH 8.3 by CO2 hydration assay.
Test [4] deals with Helicobacter pylori. Kind of test: Activity of Helicobacter pylori alpha CA at pH 8.9 by CO2 hydration assay.

For `CC(=O)Nc1nnc(S(N)(=O)=O)s1`, the results for the kcat/Km in the test on Helicobacter pylori [1] and in the test with Helicobacter pylori [2] were 4.8 10^7/M/s and 1.5 10^7/M/s, respectively. Besides, the Km with Helicobacter pylori [3] was 14.7 mM; in the test on Helicobacter pylori [4] it was 16.6 mM. In addition, the values for the turnover number (kcat) with Helicobacter pylori [3] and in the test on Helicobacter pylori [4] were 7.1 10^5/s and 2.5 10^5/s, respectively.

The values above are taken from ChEMBL document CHEMBL1148873, “Carbonic anhydrase inhibitors: the beta-carbonic anhydrase from Helicobacter pylori is a new target for sulfonamide and sulfamate inhibitors” (Bioorg Med Chem Lett, 2007).
